Measurements published in the supplement of paper PMC9931576.
Human monoclonal antibodies against the spike receptor-binding domain (heavy:light variable regions). IC50 against pseudoviruses bearing the spike of naturally observed variants; lower = stronger; >10 µg/ml means not reached at the top dose. No active / inactive call. The stated detection limit is 0.0005 µg/ml; values near or below 0.001 µg/ml lie at the floor of the assay.

B1: BD55-6652 (protein)
chain 1: QVQLVQSGAEVKKPGSSLKVSCRVSGGTFSNRGISWVRQAPGQGLEWIGRIIPILNKAFYTEKFQGRLTVTADTSTNTAYMELNGLRSEDTAVYYCARGGYIIRSFDPWGQGTLVIVSS
chain 2: IVLTQSPLSLPVTPGEPASISCRSSQSLLHSNGNNYLDWYLQKPGQSPQLLIYLGSNRASGVPDRFSGSGSGTDFTLKISRVEADDVGVYYCMQALQAETFGQGTKVEI
B2: BD55-6659 (protein)
chain 1: VPLVQSGTVVKKPGESVRISCKGSGYSFTTHWIAWVRQMPGKGLEWMGVISPGDSDTRYSPSFQGQVTISADKSVSTAYLQWDSLKASDTAMYYCARLLCGGDCPLDYWGQGTLVTVSS
chain 2: DIQMTQSPSTLSASVGDRVTITCRASQSISKWVAWYQQKPGKAPNLLIYDGSSLESAVPSRFSGSGSGTEFTLTISSLQPDDFATYYCQQYNSYPRTFGQGTKVEVK
B3: BD55-6653 (protein)
chain 1: EVQLVESGGGLVQPGRSLRLSCTASGFIFSDHGINWVRQAPGKGLEWVGFIRRKAYGGTTEYAASVKGRITISRDDSKSIAYLQMNSLKTEDTGVYYCTRPPIVVADDYYFDYWGQGTLVTVSS
chain 2: SYELTQPPSVSVSPGQTARITCSGNAFPQQYAYWYQQKPGRAPVLVIYKDKERPSGIPERFSGSSSGTTVTLTIGGVQAEDEADYYCQSADSRAVVFGGGTKLTVL
B4: BD55-6660 (protein)
chain 1: QVQLVQSGAEVKKPGASVKVSCKASGYIFTSYYMHWVRQAPGQGLEWMGTINPSGGSANFAQKFQGRVTMTRDTSASTVYLELSSLRSEDTAVYYCARDGGSAASHYYYYMDVWGEGTTVTVSS
chain 2: DIQMTQSPSSLSASVGDRVTITCRASQSISNFLNWYQQKPGKAPKVLIYAASTLQSGVPSRFSGSGSGTDFTLTINSLRPEDFATYYCQQSYTTPTWTFGQGTKVEVK
B5: BD55-6648 (protein)
chain 1: EVQLLESGGGLIQPGGSLRLSCVASGFTFSNYAMSWVRQAPGKGLEWVSSISDSDETTHLADSVKGRFTVSRDASKNTLYLHMNSLRGEDTAAYYCAGGWIYNNVLTGFFSFYYGMDVWGQGTTVTVSS
chain 2: DIVMTQTPLSLPVTPGEPASISCRSSQSLLDSDGGNTYLDWYLQKPGQSPQLLIYMVSYRASGVPDRFSGSGSDTDFTLEISRVEAEDVGVYYCMQRKEFPLTFGGGTKVEIK
B6: BD55-1284 (protein)
chain 1: VQLVQSGAEVKKPGESLRISCKGSGYRFTSNWINWVRQTPEKGLEWMGKIDPSDSYTKYSPSFQGHVTISVDKSSSTAYLQWTSLKVSDTAVYYCARQICGGDCRDDYWGQGTQVIVSS
chain 2: DIQMTQSPSSLSASVGDRVTITCQASQDVREFLNWYQQKPGKAPNLLIYDTSNLETGVPSRFSGSGSGTDFTFTITNLQAEDIATYYCQQYSHFPVTFGQGTRLDFK
B7: BD55-1294 (protein)
chain 1: QLHLQESGPGLVKPSETLSLTCTVSGGSIFSSTYYWGWIRQTPGKGLEWIGSFYNGGSTYYNPSLESRVTISEDTSKNQFSLKLSSVTAADTAVYYCARDLSETASYHNWFDPWGQGTLVTVSS
chain 2: DIQLTQSPSFLSASVGDRITITCRASQAISNYLAWYQQKPGKAPKLLIYGASTLHSGVPSRFSGSHSGSEFTLTISGLQPEDFATYYCQQLNSFGPGTKVDIK
B8: BD55-6638 (protein)
chain 1: QLQLQESGPGLVKPSETLSLTCIVSGASISSTSHYWGWIRQPPGKGLEWLGSIYYSGSTYYNPSLRSRVTISVDTSKNQFSLKLSSVTAADAAVYFCARHLGADREERLTSPWYDYYTGGHFDLWGRGTLVTVSS
chain 2: QSVLTQPPSVSGAPGQRVTISCVGSSSNIGAGYDVHWYQQLPGAAPKVLIYGNTNRPSGVPDRLSASKSGTSASLAITGLQAEDEADYYCQSYDSRLSGWVFGGGTKLTVL
B9: BD55-6654 (protein)
chain 1: EVRLVESGGGLVKPGGSLRLSCAASGFIFDTYNMNWVRQAPGKGLEWVSSITPTSSYIYYADSVKGRFTISRDNAKNSLYLQMNSLRAEDTAVYYCARDGVPFWSNPNYYYYYMDVWGKGTTVSVSS
chain 2: EIVLTQSPGTLSLSPGERATLSCRASQSVYNSYLAWYQQKPGQAPRLLIYGASSRATGIPDRFSGSGSGTDFTLTISRLEPEDFALYYCQQYASAPRTFGQGTKVEIK
B10: BD55-6644 (protein)
chain 1: QVQLVQSGGGVVQPGRSLRLSCAASGFTFTRDPMHWVRQTPGKGLEWLTHISHDGSQKSYADSVRGRFIISRDNSKNTLFLHMNSLRVEDTAVYYCARPLWFGDLGGMFDSWGQGTLVTVSS
chain 2: EIVMTQSPATLSVSPGERATLSCRASQSVSANLAWYQQKPGQPPRLLLYGASTRAAGFPARFSGSGSGTEFTLTISRLQSEDFAVYYCQQYYDWPRTFGQGTKVEIK
B11: BD55-6637 (protein)
chain 1: QVQLQESGPRLVKPSQTLSLTCTVSGDSISSGNYYWSWMRQSAGKGLEWIGRIYSRGSSKYTNNNPSLESRVTISVDTSKNQFSLKLNSVTAADTAVYYCARGGCDTTSCFGFYFYAMDVWGQGTTVSVSS
chain 2: DIQMTQSPSSLSASVGDRVTITCQASHDINIYLNWYQQKSGTPPKLLIYDASKLQTGVPSRFSGTASGTHFTFTISSLQPEDFATYFCQQYSNLPLTFGPGTKVDIK
B12: BD55-6641 (protein)
chain 1: QVQMVQSGAEVKKPGASVKVSCKTSGFTFTSYDINWVRQSPGQGLEWMGWMNPDTGDTGYGHQFQGRVTMTRSTSTSTAYMELSSLRSEDTAVYYCARRCTSCGYYYYYAVDVWGQGTTVTVSS
chain 2: DIQMTQSPSSLSASVGDRVSITCRASQSINTYLNWYQQKPGKAPKLLICDASTLQSGVPSRFSGSGSGTDFTLTISGLQPEDFATYYCQQSYSFPPTFGPGTTVDIK

molecular target: SARS-CoV-2 Omicron BA.1 spike pseudovirus; assay: pseudovirus neutralization IC50; higher = weaker neutralization
Description: (§1)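 Single-round VSV luciferase pseudovirus mixed with antibody dilutions for 1 h and put on Huh-7 cells for about a day; IC50 from the dose curve.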

| Binder | pseudovirus neutralization IC50 [µg/mL] |
| --- | --- |
| B1 | > 10 |
| B2 | 4.36 |
| B3 | > 10 |
| B4 | > 10 |
| B5 | > 10 |
| B6 | 1.75 |
| B7 | > 10 |
| B8 | 2.98 |
| B9 | > 10 |
| B10 | > 10 |
| B11 | 1.07 |
| B12 | > 10 |

molecular target: SARS-CoV-2 Omicron BA.2 spike pseudovirus; assay: as above
Description: as §1

| Binder | pseudovirus neutralization IC50 [µg/mL] |
| --- | --- |
| B1 | > 10 |
| B2 | 7.66 |
| B3 | > 10 |
| B4 | > 10 |
| B5 | > 10 |
| B6 | 1.64 |
| B7 | > 10 |
| B8 | > 10 |
| B9 | > 10 |
| B10 | > 10 |
| B11 | 1.06 |
| B12 | > 10 |

molecular target: SARS-CoV-2 Omicron BA.2.75 spike pseudovirus; assay: as above
Description: as §1

| Binder | pseudovirus neutralization IC50 [µg/mL] |
| --- | --- |
| B1 | > 10 |
| B2 | 6.47 |
| B3 | > 10 |
| B4 | > 10 |
| B5 | > 10 |
| B6 | 1.86 |
| B7 | > 10 |
| B8 | > 10 |
| B9 | > 10 |
| B10 | > 10 |
| B11 | 1.23 |
| B12 | > 10 |

molecular target: SARS-CoV-2 Omicron BA.5 spike pseudovirus; assay: as above
Description: as §1

| Binder | pseudovirus neutralization IC50 [µg/mL] |
| --- | --- |
| B1 | > 10 |
| B2 | > 10 |
| B3 | > 10 |
| B4 | > 10 |
| B5 | > 10 |
| B6 | 4.69 |
| B7 | > 10 |
| B8 | > 10 |
| B9 | > 10 |
| B10 | > 10 |
| B11 | 1.81 |
| B12 | > 10 |

molecular target: SARS-CoV-2 Omicron BQ.1.1 spike pseudovirus; assay: as above
Description: as §1

| Binder | pseudovirus neutralization IC50 [µg/mL] |
| --- | --- |
| B1 | > 10 |
| B2 | > 10 |
| B3 | > 10 |
| B4 | > 10 |
| B5 | > 10 |
| B6 | 3.8 |
| B7 | > 10 |
| B8 | > 10 |
| B9 | > 10 |
| B10 | > 10 |
| B11 | 1.06 |
| B12 | > 10 |

molecular target: SARS-CoV-2 Omicron XBB spike pseudovirus; assay: as above
Description: as §1

| Binder | pseudovirus neutralization IC50 [µg/mL] |
| --- | --- |
| B1 | > 10 |
| B2 | > 10 |
| B3 | > 10 |
| B4 | > 10 |
| B5 | > 10 |
| B6 | 0.647 |
| B7 | > 10 |
| B8 | > 10 |
| B9 | > 10 |
| B10 | > 10 |
| B11 | 1.49 |
| B12 | > 10 |

molecular target: SARS-CoV-2 early D614G spike pseudovirus; assay: as above
Description: as §1

| Binder | pseudovirus neutralization IC50 [µg/mL] |
| --- | --- |
| B1 | > 10 |
| B2 | 5.23 |
| B3 | 9.67 |
| B4 | > 10 |
| B5 | > 10 |
| B6 | 1.46 |
| B7 | 0.886 |
| B8 | 0.124 |
| B9 | > 10 |
| B10 | > 10 |
| B11 | 1.59 |
| B12 | > 10 |
